Pooled drug test results. Numbers come from NIAID ChemDB, via PubChem.

Common to all: growth or infection tests; agent: Varicella zoster virus; cell line: HEL; read-out: EC50

ECn is the concentration giving n% inhibition of infection, replication or growth. An empty or dashed field is not shown. Neighbouring rows are from separate reports.

SMILES	strain or isolate	read by	value
Nc1nc2c(ncn2[C@@H]2C=C[C@H](CO)CC2)c(=O)[nH]1	OKA (TK+)	plaque count	0.6 µg/mL
O=c1[nH]c(=O)n([C@H]2C[C@H](O)[C@@H](CO)S2)cc1/C=C/Br	YS	plaque count	0.024 µM
O=c1[nH]cnc2c1ncn2CC(CO)OCP(=O)(O)O	4 strains	cytopathic effect	>400 µg/mL
O=c1[nH]c(=O)n([C@H]2C[C@H](O)[C@@H](CO)O2)cc1C1CCCC1	OKA YS	plaque count	>170 µM
Nc1ccn(C[C@@H](CO)OCP(=O)(O)O)c(=O)n1	YS	plaque count	0.65 µM
O=c1[nH]c(=O)n([C@@H]2O[C@H](CO)[C@@H](O)[C@@H]2O)cc1I		plaque count	70 µM
Nc1ncnc2c1ncn2C[C@@H](CO)OCP(=O)(O)O	YS	plaque count	0.54 µM
O=c1[nH]c(=O)n([C@H]2C[C@H](O)[C@@H](CO)S2)cc1C1CCC1	OKA YS	plaque count	0.38 µM
C[C@@H]1CC[C@H]2[C@@H](C)C(=O)O[C@@H]3OC4(C)CC[C@@H]1[C@]32OO4	OKA	plaque count	>50 µg/mL
O=c1[nH]c(=O)n([C@H]2C[C@H](O)[C@@H](CO)O2)cc1/C=C/Br	YS/R (TK-)	plaque count	20 µg/mL
Nc1ccn(C[C@@H](CO)OCP(=O)(O)O)c(=O)n1	PCV-resistant/B	plaque count	0.15 µg/mL
Nc1nc2c(ncn2CC(CO)OCP(=O)(O)O)c(=O)[nH]1	4 strains	cytopathic effect	0.07 µg/mL
Nc1nc(N)c2ncn(CCOCP(=O)(O)O)c2n1	PFA-resistant/B	plaque count	4.1 µg/mL
Nc1nc(OCCOCP(=O)(O)O)cc(OCCOCP(=O)(O)O)n1	YS	cytopathic effect	50 µg/mL
Nc1nc(Cl)c2nnn(C[C@H]3CC[C@@H](CO)C3)c2n1	YS/R (TK-)	plaque count	>200 µg/mL
Nc1ccn(C[C@@H](CO)OCP(=O)(O)O)c(=O)n1	4 strains	cytopathic effect	0.25 µg/mL
Nc1nc(N)c2nnn(C[C@H]3CC[C@@H](CO)C3)c2n1	OKA	plaque count	>50 µg/mL
Nc1ncnc2c1ncn2CCOCP(=O)(O)O	4 strains	cytopathic effect	10 µg/mL
Nc1ncnc2c1ncn2C[C@@H](CO)OCP(=O)(O)O	PMEA-resistant	plaque count	0.027 µg/mL
O=c1[nH]c(=O)n([C@@H]2O[C@H](CO)[C@@H](O)[C@@H]2F)cc1/C=C/Br		plaque count	0.023 µM
Nc1nc2c(nnn2C[C@H]2CC[C@@H](CO)C2)c(=O)[nH]1	OKA	plaque count	>200 µg/mL
C[C@H](COc1cc(N)nc(N)n1)OCP(=O)(O)O	YS/R (TK-)	cytopathic effect	5.7 µg/mL
CCCc1cn([C@H]2C[C@H](O)[C@@H](CO)S2)c(=O)[nH]c1=O	OKA YS	plaque count	1.8 µM
Nc1nc2c(ncn2COC(CO)CO)c(=O)[nH]1	BVDU-resistant	plaque count	1.5 µg/mL
CC#Cc1cn([C@H]2C[C@H](O)[C@@H](CO)O2)c(=O)[nH]c1=O		plaque count	3.2 µM
Nc1ncnc2c1ncn2[C@@H]1C=C(CO)[C@@H](O)[C@H]1O	OKA	cytopathic effect	1 µg/mL
CCCCCCCCCCc1cc2cn([C@H]3C[C@H](O)[C@@H](CO)O3)c(=O)nc2o1	Strains YS and Oka	plaque count	0.012 µM
Nc1nc(N)c2ncn(CC(CO)OCP(=O)(O)O)c2n1	4 strains	cytopathic effect	1 µg/mL
Nc1nc2c(ncn2[C@H]2C=C[C@@H](CO)CC2)c(=O)[nH]1	YS/R (TK-)	plaque count	6.8 µg/mL
Nc1ccn(C[C@H]2COP(=O)(O)CO2)c(=O)n1	YS (TK+)	plaque count	1.06 µM
CCc1cn([C@H]2C[C@H](O)[C@@H](CO)S2)c(=O)[nH]c1=O	OKA YS	plaque count	0.087 µM
Nc1ncnc2c1ncn2[C@@H]1O[C@H](CO)[C@@H](O)[C@@H]1O	YS/R (TK-)	plaque count	14.2 µM
O=c1[nH]c(=O)n([C@@H]2O[C@H](CO)[C@@H](O)[C@H]2O)cc1/C=C/Br		plaque count	42 µM
Cc1cn([C@@H]2O[C@H](CO)[C@@H](O)[C@@H]2O)c(=O)[nH]c1=O	YS (TK+)	plaque count	0.29 µM
Cc1cn([C@H]2C[C@H](O)[C@@H](CO)S2)c(=O)[nH]c1=O	OKA YS	plaque count	0.09 µM
Nc1ncnc2c1ncn2CCOCP(=O)(O)O	Oka PMEA-resistant	cytopathic effect	≥183 µM

4 of the rows above, restated:

SMILES	strain or isolate	read by	value
Nc1nc2c(ncn2[C@@H]2C=C[C@H](CO)CC2)c(=O)[nH]1	OKA (TK+)	plaque count	0.6 µg/mL
Nc1ccn(C[C@H]2COP(=O)(O)CO2)c(=O)n1	YS (TK+)	plaque count	1.06 µM
O=c1[nH]c(=O)n([C@H]2C[C@H](O)[C@@H](CO)S2)cc1C1CCC1	OKA YS	plaque count	0.38 µM
O=c1[nH]c(=O)n([C@@H]2O[C@H](CO)[C@@H](O)[C@H]2O)cc1/C=C/Br		plaque count	42 µM